In patent publication US8993542B2, “Methods of treating viral infections” (priority 2008, dated 2015):
Entries after “also recorded” stand apart in the source; their conditions may differ.

Test system: HIV-1IIIB
Assay: Resistance selection by serial passage in CEM-SS cells
Assay type: cell-based
Experimental: In vitro studies designed to select CMX157 resistant mutants use wild-type HIV-1 as the primary inoculum and TFV as a positive control. These studies are conducted by serial passage of HIV-1IIIB and HIV-1RF in CEM-SS cells using increasing concentrations of TFV or CMX157. Drug levels are increased following detection of viral growth at each passage using procedures known to one skilled in the art. Upon completion of each passage, the reverse transcriptase coding region of the viral genome is sequenced to identify any possible resistance-associated mutations that may have emerged within the virus pool.

Question: With C[C@H](Cn1cnc2c(N)ncnc21)OCP(=O)(O)O [TFV, (R)-9-(2-phosphonylmethoxypropyl)adenine] as the compound, how does the “Mutations Observed in RT of Passaged Virus” value (“Mutations Observed in RT” below) (Passage 1, Tenofovir 10 μM (2× IC50)) read?
Answer: Its value is “None”.

Question: And the “Mutations Observed in RT” value (Passage 2, Tenofovir 20 μM (4× IC50))?
Answer: Its value is “None”.

Question: What about the “Mutations Observed in RT” value (Passage 3, Tenofovir 30 μM (6× IC50)) of the same compound?
Answer: Its value is “None”.

Question: And the “Mutations Observed in RT” value (Passage 4, Tenofovir 40 μM (8× IC50))?
Answer: Its value is “None”.

Question: What about the “Mutations Observed in RT” value (Passage 5, Tenofovir 40 μM (8× IC50)) of the same compound?
Answer: Its value is “None”.

Question: And the “Mutations Observed in RT” value (Passage 6, Tenofovir 40 μM (8× IC50))?
Answer: The value was “None”.

Question: And the “Mutations Observed in RT” value (Passage 7, Tenofovir 45 μM (9× IC50))?
Answer: Its value is “E300D mix (minor”.

Question: What about the “Mutations Observed in RT” value (Passage 8, Tenofovir 50 μM (10× IC50)) of the same compound?
Answer: Its value is “E404D mix (minor); also recorded: G436E mix (minor)”.

Question: What about the “Mutations Observed in RT” value (Passage 9, Tenofovir 55 μM (11× IC50)) of the same compound?
Answer: Its value is “K65R mix (equal); also recorded: E404D mix (major); also recorded: G436E mix (minor)”.

Question: And the “Mutations Observed in RT” value (Passage 10, Tenofovir 60 μM (12× IC50))?
Answer: The value was “K65R mix (major); also recorded: E404D mix (minor); also recorded: G436E mix (minor)”.
